Only a part is listed here, and it is no random draw. Calls of active or inactive are those of the source.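 The calls were made as follows: active = inhibition above 50%; inactive = the rest.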
Experiment: human hepatoma cell viability loss – ATP luminescence, cytotoxicity control for P. falciparum antimalarial project, primary screen (AID 2303);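 also: 0% = DMSO wells and 100% = digitonin-killed cells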
Settings: HepG2 viability, 24-48 h, at 10 µM, hits give high values
In the case of `Cn1c(=O)n(C2CCN(CCCC(c3ccc(F)cc3)c3ccc(F)cc3)CC2)c2ccccc21`, the inhibition was inactive: 18%. For `CC(C)(C)c1cc2cc(N(C(=O)c3ccc(C(F)(F)F)cc3)C3CCN(Cc4ccccc4)CC3)ccc2[nH]1`, the inhibition was inactive: 2%.

Source: PubChem BioAssay AID2303 (GlaxoSmithKline (GSK), 2010)
